Source: patent US12715896B2 (priority 2020, dated 2026)

Target: SARS-CoV-2 M^pro (Severe acute respiratory syndrome coronavirus 2, UniProt P0DTD1)
Test: FRET-based enzymatic assay for SARS-CoV-2 main protease
Assay type: biochemical
Conditions: read-out: SARS-CoV-2 M^pro IC50; initial velocity; mean ± S.E. from 2 to 3 independent experiments

CCCC[C@H](NC(=O)[C@@H]1[C@@H]2[C@H](CN1C(=O)[C@@H](NC(=O)NC1(CS(=O)(=O)C(C)(C)C)CCCCC1)C(C)(C)C)C2(C)C)C(=O)C(=O)NC1CC1 [Narlaprevir (29), Narlaprevir]
IC50: 5.73 ± 0.67 µM
